A mixed list of measured activities; the numbers were collected in NIAID ChemDB.

Common to all: tests on isolated targets; species: HIV-1; target: Reverse transcriptase; read-out: inhibition

Blank or dashed fields: not listed here. Inhibition is in % at the dose shown (toxicity tests: loss of growth or viability). Conditions beyond the fields shown may differ between rows.

smiles,strain,changes,dose,result
COC1=CC(=O)C(C[C@]2(C)[C@@H](C)CC[C@]3(C)C(C)=CCC[C@@H]23)=C(O)C1=O,,,50 µg/mL,94%
O=C(O)c1cn([C@@H]2O[C@H](CO)[C@@H](O)[C@H]2O)c2ccc(Cl)cc2c1=O,,,100 µM,0%
COc1cc(O)c2c(=O)cc(-c3cc(O)c(OC)c(O)c3)oc2c1,,,200 µg/mL,12.1%
Nc1ncnc2c1ncn2[C@@H]1O[C@H](COP(=O)(O)O[C@@H]2[C@H](O)[C@@H](COP(=O)(O)O[C@@H]3[C@H](O)[C@@H](CO)O[C@H]3n3cnc4c(N)ncnc43)O[C@H]2n2cnc3c(N)ncnc32)[C@@H](O)[C@H]1O,,,300 µM,33%
CCN1C(=O)c2ccnnc2N(C2CC2)c2ccccc21,,,330 µM,58%
COC(=O)/C(=C/c1ccccc1OCc1ccccc1)CNCc1cn([C@H]2C[C@H](n3cc(C)c(=O)[nH]c3=O)O[C@@H]2CO)nn1,,,10 µM,-18.4%
Nc1ncnc2c1ncn2[C@@H]1O[C@H](COP(=O)([O-])O[C@@H]2C[C@@H](COP(=O)([O-])O)O[C@H]2n2cnc3c(N)ncnc32)[C@@H](O)[C@H]1OP(=O)([O-])OC[C@@H]1C[C@@H](O)[C@H](n2cnc3c(N)ncnc32)O1,IIIB,,10 µM,21%
COc1cc(O)c2c(=O)cc(-c3cc(O)c(OC)c(OC)c3)oc2c1,,,200 µg/mL,5.9%
Cc1cn([C@H]2C[C@H](F)[C@@H](COP(=O)(O)OP(=O)(O)OP(=O)(O)O)O2)c(=O)[nH]c1=O,IIIB,,0.1 µM,38%
CCCCOC(=O)C(CNCc1cn([C@H]2C[C@H](n3cc(C)c(=O)[nH]c3=O)O[C@@H]2CO)nn1)C(O)c1cccc(OC)c1O,,,10 µM,31.4%
CCN1C(=O)c2cc(Cl)nnc2N(CC)c2ccccc21,,,330 µM,3%
CCN1c2ncccc2C(=O)Nc2c(COCc3ccccc3)cc(=O)[nH]c21,,RT-Y181C,38 µM,1%
C[Si](C)(CCCNC(=O)c1cc(Cl)ccc1N)O[Si](C)(C)CCCNC(=O)c1cc(Cl)ccc1N,,,400 µM,20%
S=C(NCCc1ccccn1)Nc1cccnn1,,,330 µM,99%
Nc1ncnc2c1ncn2[C@@H]1O[C@H](COP(=O)(O)O[C@@H]2[C@H](O)[C@@H](COP(=O)(O)O[C@@H]3[C@H](O)[C@@H](COP(=O)(O)O)O[C@H]3n3cnc4c(N)ncnc43)O[C@H]2n2cnc3c(N)ncnc32)[C@@H](O)[C@H]1O,IIIB,,10 µM,22%
CC1=CCC[C@H]2[C@](C)(CC3=C(O)C(=O)C(=O)C=C3O)[C@@H](C)CC[C@]12C,,,50 µg/mL,41%
CCCN1C(=O)c2ccnnc2N(CCC)c2ccccc21,,,330 µM,65%
CCCCCCCCCCCCCCCC(=O)NC1C(COP(=O)(O)OC2CC(COP(=O)(O)OC3C(O)C(CO)OC3n3cnc4c(N)ncnc43)OC2n2cnc3c(N)ncnc32)OC(n2cnc3c(N)ncnc32)C1O,,,100 µM,50%
CCN1c2ncccc2C(=O)Nc2c(C3OCCCO3)cc(OC)nc21,WT,,52 µM,1%
COc1cc2oc(-c3cc(O)c(OC)c(O)c3)c(OC)c(=O)c2c(O)c1OC,,,200 µg/mL,16.2%
Cc1cccc(C)c1OCC(=O)N[C@@H](Cc1ccccc1)[C@H](O)[C@@H](O)[C@@H]1CCCN1C(=O)COc1c(C)cccc1C,,,0.00000001 µM,71%
COC(=O)C(CNCc1cn([C@H]2C[C@H](n3cc(C)c(=O)[nH]c3=O)O[C@@H]2CO)nn1)C(O)c1ccccc1OCc1ccccc1,,,10 µM,19.4%
Nc1ncnc2c1ncn2C1OC(COP(=O)(O)OC2CC(COP(=O)(O)OC3CC(CO)OC3n3cnc4c(N)ncnc43)OC2n2cnc3c(N)ncnc32)CC1O,IIIB,,10 µM,15%
CCN1c2ncccc2C(=O)Nc2c(COc3ccccc3)cc(-c3cccc(OC)c3)nc21,WT,,69 µM,1%
Nc1ncnc2c1ncn2C1OC(COP(=O)(O)OC2C(O)C(COP(=O)(O)OC3C(O)C(CO)OC3n3cnc4c(N)ncnc43)OC2n2cnc3c(N)ncnc32)C(F)C1Cl,,,300 µM,99.7%
CCN1c2ncccc2C(=O)Nc2c(CO)cc(-c3cccc(OC)c3)nc21,WT,,16 µM,1%
CCN1C(=O)c2cc(Cl)nnc2N(C2CC2)c2ccccc21,,,33 µM,15%
O=S(=O)(O)OCC1OC2OC3C(COS(=O)(=O)O)OC(OC4C(COS(=O)(=O)O)OC(OC5C(COS(=O)(=O)O)OC(OC6C(COS(=O)(=O)O)OC(OC7C(COS(=O)(=O)O)OC(OC8C(COS(=O)(=O)O)OC(OC1C(OS(=O)(=O)O)C2OS(=O)(=O)O)C(OS(=O)(=O)O)C8OS(=O)(=O)O)C(OS(=O)(=O)O)C7OS(=O)(=O)O)C(OS(=O)(=O)O)C6OS(=O)(=O)O)C(OS(=O)(=O)O)C5OS(=O)(=O)O)C(OS(=O)(=O)O)C4OS(=O)(=O)O)C(OS(=O)(=O)O)C3OS(=O)(=O)O,BRU,,25 µg/mL,0%
CCCCCCCCCCCCCCCCOCC(COC(=O)CCC(=O)OC1CC(COP(=O)(O)OC2CC(COP(=O)(O)OC3CC(CO)OC3n3cnc4c(N)ncnc43)OC2n2cnc3c(N)ncnc32)OC1n1cnc2c(N)ncnc21)OCCCCCCCCCCCCCCCC,,,300 µM,96%
CCN1c2ncccc2C(=O)Nc2c(CO)cc(=O)[nH]c21,,RT-Y181C,25 µM,1%
CCCN1c2ccc(C)cc2N(CC)C(=O)c2cc(Cl)nnc21,,,33 µM,13%
Nc1ncnc2c1ncn2C1OC(COP(=O)(O)OC2C(O)C(COP(=O)(O)OC3C(O)C(CO)OC3n3cnc4c(N)ncnc43)OC2n2cnc3c(N)ncnc32)CC1O,IIIB,,10 µM,18%
O=C(O)c1cn([C@@H]2O[C@H](CO)[C@@H](O)[C@H]2O)c2cc(Cl)ccc2c1=O,,,100 µM,10%
O=C1c2ccccc2-[n+]2ccc3c([nH]c4ccccc43)c21,,,1000 µg/mL,58%
Nc1ncnc2c1ncn2[C@@H]1O[C@H](COP(=O)(O)O[C@@H]2[C@H](O)[C@@H](COP(=O)(O)O[C@@H]3[C@H](O)[C@@H](CO)O[C@H]3n3cnc4c(N)ncnc43)O[C@H]2n2cnc3c(N)ncnc32)[C@@H](O)[C@H]1O,IIIB,,10 µM,18%
S=C(NCCc1ccccn1)Nc1ncccn1,,,330 µM,73%
COC(=O)/C(=C/c1cccc(OC)c1OCc1ccccc1)CNCc1cn([C@H]2C[C@H](n3cc(C)c(=O)[nH]c3=O)O[C@@H]2CO)nn1,,,10 µM,4.3%
CCN1C(=O)c2ccnnc2N(C2CC2)c2ccc(C)cc21,,,330 µM,50%
CCCCCCCCCCCCCCCC(=O)NC1C(COP(=O)(O)OC2C(O)C(COP(=O)(O)OC3C(O)C(CO)OC3n3cnc4c(N)ncnc43)OC2n2cnc3c(N)ncnc32)OC(n2cnc3c(N)ncnc32)C1O,,,100 µM,0%

The last 4 rows once more:

S=C(NCCc1ccccn1)Nc1ncccn1 ; dose: 330 µM ; result: 73%
COC(=O)/C(=C/c1cccc(OC)c1OCc1ccccc1)CNCc1cn([C@H]2C[C@H](n3cc(C)c(=O)[nH]c3=O)O[C@@H]2CO)nn1 ; dose: 10 µM ; result: 4.3%
CCN1C(=O)c2ccnnc2N(C2CC2)c2ccc(C)cc21 ; dose: 330 µM ; result: 50%
CCCCCCCCCCCCCCCC(=O)NC1C(COP(=O)(O)OC2C(O)C(COP(=O)(O)OC3C(O)C(CO)OC3n3cnc4c(N)ncnc43)OC2n2cnc3c(N)ncnc32)OC(n2cnc3c(N)ncnc32)C1O ; dose: 100 µM ; result: 0%